# Assay results: patent US20160024159A1, “Potent and selective inhibitors of Nav1.7” (published 2016)
# Key:
# Test in all cases: cell-based or functional assay
# [1] = target: human voltage-gated sodium channel Nav1.3 (human) (UniProt Q9NY46)
# [2] = target: human voltage-gated sodium channel Nav1.4 (human) (UniProt P35499)
# [3] = target: human voltage-gated sodium channel Nav1.5 (human) (UniProt Q14524)
# [4] = target: human voltage-gated sodium channel Nav1.7 (human) (UniProt Q15858)
Substance,IC50 (IonWorks Quattro) [1],IC50 (IonWorks Quattro) [2],IC50 (IonWorks Quattro) [3],IC50 (IonWorks Quattro) [4],"IC50, IonWorks Quattro electrophysiology [1]","IC50, IonWorks Quattro electrophysiology [2]","IC50, IonWorks Quattro electrophysiology [3]","IC50, IonWorks Quattro electrophysiology [4]",Nav1.4/Nav1.7 (ratio of IC50) [2]
[Arg11]JzTx-V(1-29) (peptide; modification not given),0.03 µM,0.09 µM,0.86 µM,0.007 µM,–,–,–,–,–
[Arg23]JzTx-V(1-29) (peptide; modification not given),0.15 µM,0.21 µM,2.8 µM,0.15 µM,–,–,–,–,–
[Ala12]JzTx-V(1-29) (peptide; modification not given),0.15 µM,0.26 µM,> 5 µM,0.022 µM,–,–,–,–,–
[Lys14]JzTx-V(1-29) (peptide; modification not given),0.03 µM,0.07 µM,1.5 µM,0.007 µM,–,–,–,–,–
[Atz(NPEG10)5;Nle6]JzTx-V(1-29) (peptide; modification not given),–,–,–,–,> 7 µM,> 7 µM,> 7 µM,> 7 µM,–
[Lys11]JzTx-V(1-29) (peptide; modification not given),0.05 µM,0.11 µM,1.1 µM,0.008 µM,–,–,–,–,–
[Ala18]JzTx-V(1-29) (peptide; modification not given),0.24 µM,0.26 µM,> 5 µM,0.04 µM,–,–,–,–,–
[Glu20;Asn24;Tyr28]JzTx-V(1-29) (peptide; modification not given),–,–,–,–,> 5 µM,> 5 µM,> 5 µM,> 5 µM,–
[Glu20;Nva24;Tyr28]JzTx-V(1-29) (peptide; modification not given),–,–,–,–,> 5 µM,> 5 µM,> 5 µM,> 5 µM,–
[Arg29]JzTx-V(1-29) (peptide; modification not given),1.3 µM,1.1 µM,> 5 µM,0.067 µM,–,–,–,–,–
[Ala20]JzTx-V(1-29) (peptide; modification not given),0.26 µM,0.42 µM,> 5 µM,0.009 µM,–,–,–,–,–
[1-Nal17]JzTx-V(1-29) (peptide; modification not given),0.11 µM,0.13 µM,2.2 µM,0.033 µM,–,–,–,–,–
"[Glu20,29;Tyr28]JzTx-V(1-29) (peptide; modification not given)",–,–,–,–,> 5 µM,> 5 µM,> 5 µM,4.7 µM,–
"[Glu1,20;Tyr28]JzTx-V(1-29) (peptide; modification not given)",–,–,–,–,> 5 µM,> 5 µM,2 µM,0.21 µM,–
[Arg28]JzTx-V(1-29) (peptide; modification not given),0.06 µM,0.14 µM,1.8 µM,0.026 µM,–,–,–,–,–
[Glu1]JzTx-V(1-29) (peptide; modification not given),0.16 µM,0.23 µM,> 5 µM,0.018 µM,–,–,–,–,–
[Arg14]JzTx-V(1-29) (peptide; modification not given),0.04 µM,0.08 µM,1.4 µM,0.008 µM,–,–,–,–,–
[Glu20;Atz(NPEG10)29]JzTx-V(1-29) (peptide; modification not given),–,–,–,–,> 5 µM,> 5 µM,20.1 µM,5 µM,1 fold
